A mixed list of measured activities; the numbers were collected in NIAID ChemDB.

Common to all: whole-cell or culture tests; agent: Human herpesvirus 6; read-out: EC50

Blank or dashed fields: not listed here.

compound,method,cell line,strain,value
Nc1nc(NC2CC2)c2ncn(/C=C3/C[C@@H]3CO)c2n1,flow cytometry,HSB-2,TYPE 6A,3.3 µM
Cc1c(S(=O)(=O)c2ccc(Cl)cc2)c(NC(=O)C(F)(F)F)n(Cc2ccccc2)c1C,cytopathic effect,HSB-2,GS (TYPE 6A),2.2 µg/mL
Nc1ncc2c(ncn2COC(CO)CO)n1,,Human T-lymphoblasts,,0.0066 µM
CCCOc1nc(N)nc2c1ncn2/C=C1/C[C@@H]1CO,flow cytometry,HSB-2,TYPE 6A,1.1 µM
Nc1ccn(C[C@@H](CO)OCP(=O)(O)O)c(=O)n1,flow cytometry,SupT1,GS (subtype 6A),>11.7 µM
OC[C@@H]1O[C@@H](n2c(Br)nc3cc(Cl)c(Cl)cc32)[C@H](O)[C@H]1O,hybridisation,HSB-2,6a,2.8 µM
N#CC1=C(c2ccccc2)Nc2sccc2S1(=O)=O,cytopathic effect,MOLT-3,Z29 (TYPE 6B),>20 µg/mL
Nc1nc2c(ncn2[C@@H]2C[C@H](CO)[C@H]2CO)c(=O)[nH]1,cytopathic effect,Human T-lymphoblasts,,2.4 µM
CC(C)Nc1nc2cc(Cl)c(Cl)cc2n1[C@@H]1O[C@@H](C)[C@@H](O)[C@H]1O,hybridisation,MOLT-3,6B,>20 µM
Cc1oc(NC(=O)C(F)(F)F)c(S(=O)(=O)c2ccc(Cl)cc2)c1C,cytopathic effect,MOLT-3,Z29 (TYPE 6B),>20 µg/mL
OC[C@H]1O[C@@H](n2c(Br)nc3cc(Cl)c(Cl)cc32)[C@H](O)[C@@H]1O,flow cytometry,HSB-2,GS (subtype 6A),125 µM
OC[C@H]1CC(n2c(NC3CC3)nc3cc(Cl)c(Cl)cc32)[C@H](O)[C@@H]1O,hybridisation,HSB-2,6a,>20 µM
Nc1ncnc2c1ncn2/C=C1/CC1(CO)CO,flow cytometry,HSB-2,TYPE 6A,17.8 µM
N#CC1C(c2ccc(Cl)cc2)Nc2ccccc2S1(=O)=O,hybridisation,MOLT-3,Z29 (TYPE 6B),1.9 µg/mL
Nc1ccn(/C=C2/CC2(CO)CO)c(=O)n1,flow cytometry,HSB-2,TYPE 6A,17.8 µM
NC(=O)c1c(Cl)c(-c2cccnc2)n2c1CCCC2,hybridisation,SupT1,TYPE B (Z29),0.058 µM
C[C@H]1O[C@@H](n2c(NC3CC3)nc3cc(Cl)c(Cl)cc32)[C@H](O)[C@@H]1O,hybridisation,HSB-2,6a,>100 µM
C#CCNc1nc(N)nc2c1ncn2/C=C1/C[C@@H]1CO,flow cytometry,HSB-2,TYPE 6B,5.4 µM
Nc1nc2c(ncn2C[C@]2(CO)C[C@H]2CO)c(=O)[nH]1,,MOLT-3,TYPE 6A,3.4 µg/mL
O[C@@H]1[C@H](O)CO[C@H]1n1c(Br)nc2cc(Cl)c(Cl)cc21,hybridisation,HSB-2,6a,>10 µM
C=CCOc1nc(N)nc2c1ncn2/C=C1/C[C@@H]1CO,flow cytometry,HSB-2,TYPE 6A,3.8 µM
OC[C@H]1CC(n2c(Br)nc3cc(Cl)c(Cl)cc32)[C@H](O)[C@@H]1O,hybridisation,HSB-2,6a,5.5 µM
O[C@@H]1[C@H](O)[C@H](O)CO[C@H]1n1c(Br)nc2cc(Cl)c(Cl)cc21,flow cytometry,SupT1,GS (subtype 6A),>125 µM
Nc1nc2c(ncn2COC(CO)CO)c(=O)[nH]1,,Human cord blood lymphocytes,,1.3 µM
Nc1nc2c(ncn2/C=C2/CC2(CO)CO)c(=O)[nH]1,flow cytometry,HSB-2,TYPE 6A,7.8 µM

3 of the rows above, restated:

compound,method,cell line,strain,value
Nc1ccn(/C=C2/CC2(CO)CO)c(=O)n1,flow cytometry,HSB-2,TYPE 6A,17.8 µM
Nc1ncnc2c1ncn2/C=C1/CC1(CO)CO,flow cytometry,HSB-2,TYPE 6A,17.8 µM
OC[C@H]1CC(n2c(Br)nc3cc(Cl)c(Cl)cc32)[C@H](O)[C@@H]1O,hybridisation,HSB-2,6a,5.5 µM

Neighbouring rows are from separate reports. ECn: concentration that inhibits the pathogen or its effect by n%.